Compound potency records, mixed from different reports. Data source: NIAID ChemDB in PubChem.

All rows: growth or infection tests; organism: Plasmodium falciparum

ECn: concentration that inhibits the pathogen or its effect by n%. Blank or dashed fields: not listed here. Rows are shuffled and stem from different studies.

compound,read by,read-out,mutations,cells,strain or isolate,value
C=C[C@H]1CN2CC[C@H]1C[C@H]2[C@H](O)c1ccnc2ccccc12,,EC50,,,Dd2,0.09 µM
C[n+]1c2ccccc2cc2[nH]c3ccccc3c21.O=S(=O)([O-])C(F)(F)F,,EC50,,,3D7,0.91 µM
CCN(CC)CCCC(C)Nc1ccnc2cc(Cl)ccc12,SYBR Green,EC50,,,3D7,0.005 µg/mL
O=CN(O)CCC(c1ccc(Cl)c(Cl)c1)P(=O)(O)O,fluorescence,EC50,,,3D7,0.09 µM
O=C(CCC(c1ccccc1)P(=O)(O)O)NO,absorbance,EC50,,RBC,K1,3.87 µM
CN1CCc2cc3c(cc2C(=O)Cc2ccc4c(c2C1)OCO4)OCO3,,EC50,,,TM4/8.2,1.45 µg/mL
CCc1ncn(CC(=O)CC2NCCC[C@@H]2O)c(=O)c1CC,LDH / absorbance,EC50,,Human A+ erythrocytes,FCR3,0.197 µg/mL
COc1cc2c(cc1OC)CN(Cc1ccc(O)cc1)CC2,,EC50,,,TM4/8.2,>20 µg/mL
Cc1c2ccncc2c(C)c2c1[nH]c1ccccc12,,EC50,,,K1,0.81 µM
O=C(CC1CCC2(CC1)OOC1(OO2)C2CC3CC(C2)CC1C3)N1CCC(N2CCCC2)CC1,,EC50,,,3D7,0.0012 µM
CN1CCc2cc3c(cc2[C@H]1[C@H]1OC(=O)c2c1ccc1c2OCO1)OCO3,,EC50,,,TM4/8.2,>10 µg/mL
CCc1ccccc1NC(=O)CSc1nc2ncccc2[nH]1,microscopy,EC50,,Erythrocytes,3D7,0.2345 µM
C[C@H]1[C@H](C)CC[C@]2(C(=O)O)CC[C@]3(C)C(=CC[C@@H]4[C@@]5(C)CC[C@H](O)C(C)(C)[C@@H]5CC[C@]43C)[C@H]12,LDH,EC50,,,D10,>200 µM
C/C=C1/CC2CCC3=C(Cc4ccccc43)C2C[C@@H]1C1=CN2c3ccccc3C34CCN5C/C(=C/O)[C@H](C[C@H]53)[C@@H]([C@@H]1O)[C@H]24,,EC90,,,W2,3.161 µg/mL
CCc1ccc(OCCCCN(C)Cc2ccccc2)cc1,flow cytometry,EC50,,Erythrocytes,K1,4.74 µM
CCN(CC)CCCC(C)Nc1ccnc2cc(Cl)ccc12,,EC50,,,W2,0.14 µM
C=C1CN2CCC34c5ccccc5N5C=C([C@H]6CC7C8=C(CCC7C/C6=C/C)c6ccccc6C8)[C@@H](O)[C@@H]([C@H]53)[C@H]1C[C@H]24,,EC50,,,3D7,0.861 µg/mL
COc1ccc2nc3cc(Cl)ccc3c(Nc3cc(CN4CCCC4)c(O)c(CN4CCCC4)c3)c2n1,,EC50,,,NF54,0.0049 µM
CC(NCc1ccc(OCc2ccccc2)cc1)C(O)c1ccccc1,flow cytometry,EC50,,Erythrocytes,3D7,3.9 µM
C[C@@H]1CC[C@H]2[C@@H](C)C(=O)O[C@@H]3OC4(C)CC[C@@H]1[C@]32OO4,,EC50,,,FCM29,0.04 µg/mL
Cc1cccc(OCCNC(=O)c2c(Cl)ccc3cc(Cl)cnc23)c1,,EC50,,,Dd2,>50 µM
CCc1cccc(OCCCCN(C)Cc2ccccc2)c1,flow cytometry,EC50,,Erythrocytes,K1,6.22 µM
O=c1c2ccccc2ncn1CCCC1NCCCC[C@@H]1O,LDH / absorbance,EC50,,Human A+ erythrocytes,K1,0.725 µg/mL
c1ccc(C(CCNCC2(c3ccc4c(c3)OCCO4)CCOCC2)c2ccccc2)cc1,flow cytometry,EC50,,Erythrocytes,K1,5.22 µM
CCC(C)N1C(=O)C2C(C1=O)[C@H]1CC[C@@H]2O1,,EC50,,,W2,135 µM
COc1cc(Cl)c(C(=O)NCCOc2cccc(C)c2)cc1OC,,EC50,,,Dd2,>50 µM
O[C@H](c1cc(C(F)(F)F)nc2c(C(F)(F)F)cccc12)[C@@H]1CCCCN1,schizont maturation,EC50,,,,0.126 µM
Cc1[nH]ccc2c(C)c3nc4ccccc4c3cc12,,EC50,,,3D7,1.2 µM
CC(C)(O)[C@H](O)COc1c2occc2cc2ccc(=O)oc12,,EC90,,RBC,CQ-sensitive,29 µg/mL
O=c1c2ccccc2ncn1CCCC1NCC[C@@H]1O,LDH / absorbance,EC50,,Human A+ erythrocytes,FCR3,>1 µg/mL
Cc1cccc(OCCNC(=O)c2ccc3ccccc3c2O)c1,,EC50,,,Dd2,>50 µM
CC1(C)N=C(N)N=C(N)N1c1ccc(Cl)cc1,,EC50,,,NF54,0.0045 µM
Cc1cccc(OCCNC(=O)c2ccc(N)cc2Cl)c1,,EC50,,,Dd2,10.5 µM
c1ccc(Cc2ccccc2OCCCCn2cccc2)cc1,flow cytometry,EC50,,Erythrocytes,K1,>20.5 µM
O=C(CC1NCCC[C@@H]1O)Cn1cnc2ccccc2c1=O,LDH / absorbance,EC50,,Human A+ erythrocytes,FCR3,0.00142 µg/mL
CCCCNCCCCCOc1ccc2ccccc2c1,flow cytometry,EC50,,Erythrocytes,K1,1.36 µM
Cc1cccc(OCCNC(=O)c2ccc([N+](=O)[O-])cc2Cl)c1,,EC50,,,Dd2,50 µM
CCOc1ccc2nc(C)cc(Nc3ccc4c(c3)OCCO4)c2c1,flow cytometry,EC50,,Erythrocytes,3D7,1.99 µM
O[C@H](c1cc(C(F)(F)F)nc2c(C(F)(F)F)cccc12)[C@@H]1CCCCN1,broth dilution / radiometric,EC50,,human red blood cells,W2,0.018 µM
Cc1cccc(OCCNC(=O)c2ccccc2Cl)c1,,EC50,,,Dd2,7.5 µM
CN(O)C(=O)CCC(c1ccccc1)P(=O)(O)O,absorbance,EC50,,RBC,K1,0.59 µM
COc1ccc(CNc2ccc3[nH]c(=O)[nH]c3c2)cc1,,EC50,,,Dd2,>50 µM
CC(O)CNCCCCOc1ccc(Cl)cc1Cc1ccccc1,flow cytometry,EC50,,Erythrocytes,K1,2.57 µM
C[C@@H]1CC[C@H]2[C@@H](C)C(=O)O[C@@H]3OC4(C)CC[C@@H]1[C@]32OO4,SYBR Green / fluorescence,EC50,GNF-Pf4492-resistant pfatp4 A187V,,GNF-Pf4492R-3,0.0185 µM
Cc1cccc(OCCNC(=O)c2ccncc2Cl)c1,,EC50,,,Dd2,>50 µM

For reference, 4 entries again:

compound,read by,read-out,mutations,cells,strain or isolate,value
CC(O)CNCCCCOc1ccc(Cl)cc1Cc1ccccc1,flow cytometry,EC50,,Erythrocytes,K1,2.57 µM
CCc1ccccc1NC(=O)CSc1nc2ncccc2[nH]1,microscopy,EC50,,Erythrocytes,3D7,0.2345 µM
c1ccc(Cc2ccccc2OCCCCn2cccc2)cc1,flow cytometry,EC50,,Erythrocytes,K1,>20.5 µM
O[C@H](c1cc(C(F)(F)F)nc2c(C(F)(F)F)cccc12)[C@@H]1CCCCN1,broth dilution / radiometric,EC50,,human red blood cells,W2,0.018 µM